Anti-infective test results gathered from many reports (values: NIAID ChemDB through PubChem).

Shared fields: growth or infection tests; species: Candida albicans; read-out: MIC

An empty or dashed field is not shown. Conditions beyond the fields shown may differ between rows.

structure	strain or isolate	value
c1cc(Oc2ccc(-c3cc4ccc(C5=NCCN5)cc4[nH]3)cc2)cc(C2=NCCN2)c1		10 µg/mL
CC(C)C(=N)CCC[C@H]1CO[C@@](Cn2cccc2)(c2ccc(F)cc2F)C1	A.10231	100 µg/mL
CCCCCOc1ccc(-c2ccc(-c3ccc(C(=O)N[C@H]4CCCNC(=O)C5C[C@H](NS(C)(=O)=O)CN5C(=O)C(C(C)O)NC(=O)C(CCc5ccc(O)cc5)NC(=O)C5C[C@@H](O)CN5C(=O)C(C(C)O)NC4=O)cc3)cc2)cc1	ATCC 10231	0.2 µg/mL
C[C@H](n1nnc(CCN2CCN(c3ccccn3)CC2)n1)[C@](O)(Cn1cncn1)c1ccc(F)cc1F		8 µg/mL
Fc1ccc(CCCCn2c3c(c4cc(F)ccc42)CNCC3)cc1	OY2-76	1 µg/mL
CC(O)C1NC(=O)C(CCc2ccc(O)cc2)NC(=O)C2C[C@@H](O)CN2C(=O)C(C(C)O)NC(=O)[C@@H](NC(=O)c2ccccc2)CCCNC(=O)C2C[C@H](N)CN2C1=O	ATCC CCH442	>100 µg/mL
CCc1n[nH]c(=O)n1-c1ccncc1	ATCC16231	>250 µg/mL
C[C@H]1[C@H](O)[C@@H](C)/C=C/C=C/C=C/C=C/C=C/C=C/C=C/[C@H](O[C@@H]2O[C@H](C)[C@@H](O)[C@H](N)[C@@H]2O)C[C@@H]2O[C@](O)(C[C@@H](O)C[C@@H](O)CC[C@H](O)[C@@H](O)C[C@@H](O)CC(=O)O[C@H]1C)C[C@H](O)[C@H]2C(=O)O	ATCC64547	0.25 µg/mL
NC(N)=Nc1ccc(-c2cc3ccc(N=C(N)N)cc3s2)cc1		10 µg/mL
O=[N+]([O-])c1ccc(N2CCN(CCc3nnnn3CC(O)(Cn3cncn3)c3ccc(F)cc3F)CC2)cc1		4 µg/mL
COc1cc(/C=C/C(=O)c2ccc3c(c2)OCO3)cc(OC)c1OC	DSM 70014	25 µg/mL
CCCCCOc1ccc(-c2ccc(-c3ccc(C(=O)N[C@H]4CCCNC(=O)C5C[C@H](NC(=O)NC)CN5C(=O)C(C(C)O)NC(=O)C(CCc5ccc(O)cc5)NC(=O)C5C[C@@H](O)CN5C(=O)C(C(C)O)NC4=O)cc3)cc2)cc1	ATCC 10231	0.3 µg/mL
Clc1ccccc1C(c1ccccc1)(c1ccccc1)n1ccnc1	DSM 70014	5 µg/mL
CC(C)C(=N)CCC[C@H]1CO[C@@](Cn2ccnc2)(c2ccc(F)cc2F)C1	A.10231	>100 µg/mL
c1cc(-c2cc3ccc(C4=NCCN4)cc3[nH]2)ccc1C1=NCCN1		>60 µg/mL
Clc1ccc(C(Cn2ccnc2)OCc2ccc(-c3ccccc3)cc2)cc1	CA2	>128 µg/mL
O=C(Nc1nc2ccc(NC(=O)[C@@H]3CCC[C@H](NCc4ccc5ccccc5c4)C3)cc2s1)C1CCCC1	IFM 47601 (B59630)	3.13 µM
CC(C)C(=O)CCC[C@@H]1CO[C@@](Cn2cncn2)(c2ccc(F)cc2F)C1	CI-2	100 µg/mL
Cc1ccc(Cc2n[nH]c(=O)n2-c2ccccc2)cc1	ATCC16231	>250 µg/mL
Clc1ccc(C(Cn2ccnc2)OCc2cccc3ccccc23)cc1	Y0109	>128 µg/mL
COc1ccc(/C=c2\sc3n(c2=O)C(c2cc(OC)c(OC)c(OC)c2)C=C(c2ccc(OC)c(OC)c2)N=3)cc1	DSM 70014	50 µg/mL
Cc1ccc(C(Cn2ccnc2)OC/C=C/c2ccccc2)cc1	5M	>128 µg/mL
C[C@H](n1nnc(CCN2CCN(c3ccc(Cl)cc3)CC2)n1)[C@](O)(Cn1cncn1)c1ccc(F)cc1F	V-01-191A-261 (resistant)	4 µg/mL
N=C(N)c1ccc2oc(/C=C/c3cc4cc(C(=N)N)ccc4s3)cc2c1		>60 µg/mL
COc1ccc(C2=CC(c3cc(OC)c(OC)c(OC)c3)NC(=O)N2)cc1OC	DSM 70014	12.5 µg/mL
CCCCCOc1ccc(-c2ccc(-c3ccc(C(=O)N[C@H]4CCCNC(=O)C5C[C@H](N=C(N)N)CN5C(=O)C(C(C)O)NC(=O)C(CCc5ccc(O)cc5)NC(=O)C5C[C@@H](O)CN5C(=O)C(C(C)O)NC4=O)cc3)cc2)cc1	ATCC CCH442	0.2 µg/mL
Clc1ccc(C(Cn2ccnc2)OCc2cccc3ccccc23)c(Cl)c1	3M	8 µg/mL
CCCn1nc(-c2ccccc2)n(NC)c1=O	ATCC16231	>250 µg/mL
CC(C)C(=N)CCC[C@H]1CO[C@@](Cn2cncn2)(c2ccc(F)cc2F)C1	A.10231	>100 µg/mL
CO[C@H]1C[C@@H]2CC[C@@H](C)[C@@](O)(O2)C(=O)C(=O)N2CCCC[C@H]2C(=O)O[C@H]([C@H](C)C[C@@H]2CC[C@@H](C(=O)ON3CCOCC3)[C@H](OC)C2)CC(=O)[C@H](C)/C=C(\C)[C@@H](O)[C@@H](OC)C(=O)[C@H](C)C[C@H](C)CCCC/C=C/1C	579A	>100 µg/mL
CC(=O)C[C@H]1C[C@H]2[C@H]([C@@H]3c4[nH]c5ccccc5c4CCN13)[C@H](O)C13CC/C=C\CCCCN1CC21CC/C=C\CCCNC13		20 µg/mL
Cc1ccc(Cc2n[nH]c(=O)n2N2C(=O)c3ccccc3C2=O)cc1	ATCC16231	>250 µg/mL
CCCCCOc1ccc(-c2ccc(-c3ccc(C(=O)N[C@H]4CCCNC(=O)C5[C@@H](O)[C@@H](O)N5C(=O)C(C(C)O)NC(=O)C(CCc5ccc(O)cc5)NC(=O)C5C[C@@H](O)CN5C(=O)C(C(C)O)NC4=O)cc3)cc2)cc1	ATCC 62376	0.1 µg/mL
COc1ccccc1N1CCN(CCc2nnnn2[C@@H](C)[C@](O)(Cn2cncn2)c2ccc(F)cc2F)CC1		8 µg/mL
CC(O)C1NC(=O)C(CCc2ccc(O)cc2)NC(=O)C2C[C@@H](O)CN2C(=O)C(C(C)O)NC(=O)[C@@H](NC(=O)c2ccc(N(C)C)cc2)CCCNC(=O)C2C[C@H](N)CN2C1=O	ATCC CCH442	>100 µg/mL
CC(C)C(=O)CCC[C@@H]1CO[C@@](Cn2cccc2)(c2ccc(F)cc2F)C1	CI-2	>100 µg/mL
CO[C@H]1C[C@@H]2CC[C@@H](C)[C@@](O)(O2)C(=O)C(=O)N2CCCC[C@H]2C(=O)O[C@H]([C@H](C)C[C@@H]2CC[C@@H](C(=O)ON3CCCCC3)[C@H](OC)C2)CC(=O)[C@H](C)/C=C(\C)[C@@H](O)[C@@H](OC)C(=O)[C@H](C)C[C@H](C)CCCC/C=C/1C	442	>100 µg/mL
Cc1ccc2c(c1)c1nnc(N3CCN(C)CC3)nc1n2C	2402E	2 µg/mL
C(=C\c1cc2ccc(C3=NCCN3)cc2[nH]1)/c1ccc(Oc2ccc(C3=NCCN3)cc2)cc1		30 µg/mL
CCCCCOc1ccc(-c2ccc(-c3ccc(C(=O)N[C@H]4CCCNC(=O)C5C[C@H](NCC(N)CO)CN5C(=O)C(C(C)O)NC(=O)C(CCc5ccc(O)cc5)NC(=O)C5C[C@@H](O)CN5C(=O)C(C(C)O)NC4=O)cc3)cc2)cc1	ATCC 10231	0.39 µg/mL
N=C(N)c1ccc(-c2nnc(-c3ccc(C(=N)N)cc3)o2)cc1		>60 µg/mL
CCC(C)n1ncn(-c2ccc(N3CCN(c4ccc(OC[C@H]5CO[C@](Cn6cncn6)(c6ccc(Cl)cc6Cl)O5)cc4)CC3)cc2)c1=O	ATCC 64548	0.12 µg/mL
CO[C@@H]1C[C@H](C[C@@H](C)[C@@H]2CC(=O)[C@H](C)/C=C(\C)[C@@H](O)[C@@H](OC)C(=O)[C@H](C)C[C@H](C)/C=C/C=C/C=C(\C)[C@H](N(OC)C(=O)N(C)C)C[C@@H]3CC[C@@H](C)[C@@](O)(O3)C(=O)C(=O)N3CCCC[C@H]3C(=O)O2)CC[C@H]1C(=O)ON(C)O	38247	>100 µg/mL
COc1ccc(C2=NN(c3ccccc3)C(c3cc(OC)c(OC)c(OC)c3)C2)cc1OC	DSM 70014	50 µg/mL
c1ccc(-c2ccc(COC(Cn3ccnc3)c3ccccc3)cc2)cc1	CA6	>128 µg/mL
N=C(N)c1ccc2oc(/C=C/c3cc4ccc(C(=N)N)cc4o3)cc2c1		30 µg/mL
C[C@H]1[C@H](O)[C@@H](C)/C=C/C=C/C=C/C=C/C=C/C=C/C=C/[C@H](O[C@@H]2O[C@H](C)[C@@H](O)[C@H](N)[C@@H]2O)C[C@@H]2O[C@](O)(C[C@@H](O)C[C@@H](O)CC[C@H](O)[C@@H](O)C[C@@H](O)CC(=O)O[C@H]1C)C[C@H](O)[C@H]2C(=O)O	C316	0.008 µg/mL
CO[C@H]1C[C@@H]2CC[C@@H](C)[C@@](O)(O2)C(=O)C(=O)N2CCCC[C@H]2C(=O)O[C@H]([C@H](C)C[C@@H]2CC[C@H](c3nn[nH]n3)[C@H](OC)C2)CC(=O)[C@H](C)/C=C(\C)[C@@H](O)[C@@H](OC)C(=O)[C@H](C)C[C@H](C)CCCC/C=C/1C	62376	>100 µg/mL
C[C@H](n1nnc(CCN2CCN(c3ccc(F)cc3)CC2)n1)[C@](O)(Cn1cncn1)c1ccc(F)cc1F	V-01-191A-261 (resistant)	8 µg/mL
CCCCCOc1ccc(-c2ccc(-c3ccc(C(=O)N[C@H]4CCCNC(=O)C5CNCN5C(=O)C(C(C)O)NC(=O)C(CCc5ccc(O)cc5)NC(=O)C5C[C@@H](O)CN5C(=O)C(C(C)O)NC4=O)cc3)cc2)cc1	ATCC 10231	1.56 µg/mL
CO[C@@H]1C[C@H](C[C@@H](C)[C@@H]2CC(=O)[C@H](C)/C=C(\C)[C@@H](O)[C@@H](OC)C(=O)[C@H](C)C[C@H](C)/C=C/C=C/C=C(\C)[C@H](N(O)C(N)=O)C[C@@H]3CC[C@@H](C)[C@@](O)(O3)C(=O)C(=O)N3CCCC[C@H]3C(=O)O2)CC[C@H]1C(=O)ON(C)O	10231	100 µg/mL

The first 7 rows once more:

structure | strain or isolate | value
c1cc(Oc2ccc(-c3cc4ccc(C5=NCCN5)cc4[nH]3)cc2)cc(C2=NCCN2)c1 |  | 10 µg/mL
CC(C)C(=N)CCC[C@H]1CO[C@@](Cn2cccc2)(c2ccc(F)cc2F)C1 | A.10231 | 100 µg/mL
CCCCCOc1ccc(-c2ccc(-c3ccc(C(=O)N[C@H]4CCCNC(=O)C5C[C@H](NS(C)(=O)=O)CN5C(=O)C(C(C)O)NC(=O)C(CCc5ccc(O)cc5)NC(=O)C5C[C@@H](O)CN5C(=O)C(C(C)O)NC4=O)cc3)cc2)cc1 | ATCC 10231 | 0.2 µg/mL
C[C@H](n1nnc(CCN2CCN(c3ccccn3)CC2)n1)[C@](O)(Cn1cncn1)c1ccc(F)cc1F |  | 8 µg/mL
Fc1ccc(CCCCn2c3c(c4cc(F)ccc42)CNCC3)cc1 | OY2-76 | 1 µg/mL
CC(O)C1NC(=O)C(CCc2ccc(O)cc2)NC(=O)C2C[C@@H](O)CN2C(=O)C(C(C)O)NC(=O)[C@@H](NC(=O)c2ccccc2)CCCNC(=O)C2C[C@H](N)CN2C1=O | ATCC CCH442 | >100 µg/mL
CCc1n[nH]c(=O)n1-c1ccncc1 | ATCC16231 | >250 µg/mL